Reference: PMC8026400, “Osmium–arene complexes with high potency towards Mycobacterium tuberculosis” (Metallomics: Integrated Biometal Science, 2021)
Like-named read-outs stand apart in the source and are kept apart here.

Key:
mammalian cells = tested on: mammalian cells; design: method as in PMID 31528927; details: cited from earlier work
Mtb H37Rv cells = experiment: Os uptake in Mtb (ICP-MS, normalized to P); format: cell-based, Mycobacterium tuberculosis; details: for Temperature-dependent Os accumulation: no shaking; for Temperature-dependent Os accumulation / Time-dependent Os accumulation: 0.5× MIC; for Time-dependent Os accumulation: shaking

Structure (SMILES): CN(C)c1ccc(N=Nc2ccccn2)cc1.Cc1ccc(C(C)C)cc1.F[P-](F)(F)(F)(F)F.[I][Os+] [Complex 2, [Os(AzPy-NMe2)I(p-cymene)]PF6]
- decrease of intracellular Os accumulation compared with 310 K (mammalian cells; 277 K): 31 fold
- decrease of intracellular Os accumulation compared with 310 K (mammalian cells; 296 K): 4 fold
- Temperature-dependent Os accumulation (Mtb H37Rv cells; 0 h, 277 K): 0.000 ± 0.009 µg Os / mg P
- Temperature-dependent Os accumulation (Mtb H37Rv cells; 0 h, 310 K): 0.02 ± 0.02 µg Os / mg P
- Time-dependent Os accumulation (Mtb H37Rv cells; 0 h, 310 K): 0 ± 0.009 µg Os / mg P
- time of Os accumulation maximum (Mtb H37Rv cells; 0.625 µM (0.5× MIC), 310 K, without shaking): ~17 h
- Temperature-dependent Os accumulation (Mtb H37Rv cells; 1.5 h, 277 K): 0.024 ± 0.001 µg Os / mg P
- Temperature-dependent Os accumulation (Mtb H37Rv cells; 1.5 h, 310 K): 0.19 ± 0.02 µg Os / mg P
- Time-dependent Os accumulation (Mtb H37Rv cells; 1.5 h, 310 K): 0.287 ± 0.009 µg Os / mg P
- Temperature-dependent Os accumulation (Mtb H37Rv cells; 3 h, 277 K): 0.030 ± 0.005 µg Os / mg P
- Temperature-dependent Os accumulation (Mtb H37Rv cells; 3 h, 310 K): 0.27 ± 0.02 µg Os / mg P
- Time-dependent Os accumulation (Mtb H37Rv cells; 3 h, 310 K): 0.51 ± 0.04 µg Os / mg P
- Temperature-dependent Os accumulation (Mtb H37Rv cells; 5 h, 277 K): 0.033 ± 0.005 µg Os / mg P
- Temperature-dependent Os accumulation (Mtb H37Rv cells; 5 h, 310 K): 0.31 ± 0.03 µg Os / mg P
- Time-dependent Os accumulation (Mtb H37Rv cells; 5 h, 310 K): 0.67 ± 0.01 µg Os / mg P
- Temperature-dependent Os accumulation (Mtb H37Rv cells; 7 h, 277 K): 0.052 ± 0.005 µg Os / mg P
- Temperature-dependent Os accumulation (Mtb H37Rv cells; 7 h, 310 K): 0.36 ± 0.01 µg Os / mg P
- Time-dependent Os accumulation (Mtb H37Rv cells; 7 h, 310 K): 0.64 ± 0.02 µg Os / mg P
- Temperature-dependent Os accumulation (Mtb H37Rv cells; 17 h, 277 K): 0.12 ± 0.02 µg Os / mg P
- Temperature-dependent Os accumulation (Mtb H37Rv cells; 17 h, 310 K): 0.37 ± 0.01 µg Os / mg P
- Time-dependent Os accumulation (Mtb H37Rv cells; 17 h, 310 K): 0.39 ± 0.05 µg Os / mg P
- Temperature-dependent Os accumulation (Mtb H37Rv cells; 20 h, 277 K): 0.14 ± 0.02 µg Os / mg P
- Temperature-dependent Os accumulation (Mtb H37Rv cells; 20 h, 310 K): 0.38 ± 0.04 µg Os / mg P
- Time-dependent Os accumulation (Mtb H37Rv cells; 20 h, 310 K): 0.30 ± 0.01 µg Os / mg P
- Time-dependent Os accumulation (Mtb H37Rv cells; 24 h (1 day), 310 K): 0.24 ± 0.02 µg Os / mg P
- Temperature-dependent Os accumulation (Mtb H37Rv cells; 24 h, 277 K): 0.211 ± 0.004 µg Os / mg P
- Temperature-dependent Os accumulation (Mtb H37Rv cells; 24 h, 310 K): 0.37 ± 0.05 µg Os / mg P
- Time-dependent Os accumulation (Mtb H37Rv cells; 168 h (7 days), 310 K): 0.02 ± 0.02 µg Os / mg P
